Results of unrelated studies side by side (data: NIAID ChemDB).

All rows: whole-cell or culture tests; organism: Vesicular stomatitis virus

ECn: concentration that inhibits the pathogen or its effect by n%. Conditions beyond the fields shown may differ between rows. An empty or dashed field is not shown.

{"compound": "OC[C@H]1O[C@@H](n2cnc3cc(Cl)c(Cl)cc32)[C@H](O)[C@H]1O", "endpoint": "EC50", "method": "cytopathic effect", "cell line": "HeLa", "result": ">10 µg/mL"}
{"compound": "C[C@H]1C[C@@H](n2cnc3c(N)ncnc32)[C@H](O)[C@@H]1O", "endpoint": "EC50", "method": "cytopathic effect", "cell line": "E6SM", "result": "0.7 µg/mL"}
{"compound": "Cc1cn([C@H]2C[C@H](O)[C@@H](CO)S2)c(=O)[nH]c1=O", "endpoint": "EC50", "method": "cytopathic effect", "cell line": "E6SM", "result": ">2000 µM"}
{"compound": "Nc1nc(Cl)c2nnn(C[C@H]3CC[C@@H](CO)C3)c2n1", "endpoint": "EC50", "method": "cytopathic effect", "cell line": "E6SM", "result": ">200 µg/mL"}
{"compound": "Cc1cn([C@H]2C[C@H](O)[C@@H](CO)O2)c(=O)[nH]c1=O", "endpoint": "EC50", "method": "cytopathic effect", "cell line": "E6SM", "result": ">2000 µM"}
{"compound": "O=c1c2cccnc2[se]n1N(c1ccccc1)c1ccccn1", "endpoint": "MIC", "result": "500 µg/mL"}
{"compound": "OC[C@H]1O[C@@H](n2cnc3cc(Cl)c(Cl)cc32)[C@@H](O)[C@@H]1O", "endpoint": "EC50", "method": "cytopathic effect", "cell line": "HeLa", "result": ">10 µg/mL"}
{"compound": "Nc1nc(Cl)c2ncn(C[C@H]3CC[C@@H](CO)C3)c2n1", "endpoint": "EC50", "method": "cytopathic effect", "cell line": "HeLa", "result": ">10 µg/mL"}
{"compound": "Nc1ncnc2c1ccn2[C@@H]1O[C@H](CO)[C@H](O)[C@H]1O", "endpoint": "EC50", "method": "cytopathic effect", "cell line": "HeLa", "result": "≥4 µg/mL"}
{"compound": "Nc1cc(OCCOCP(=O)(O)O)nc(N)n1", "endpoint": "EC50", "method": "cytopathic effect", "result": ">190 µM"}
{"compound": "Nc1nc(N)c2ncn(C[C@H]3CC[C@@H](CO)C3)c2n1", "endpoint": "EC50", "method": "cytopathic effect", "cell line": "E6SM", "result": ">400 µg/mL"}
{"compound": "CCCn1[se]c2ncccc2c1=O", "endpoint": "MIC", "result": "400 µg/mL"}
{"compound": "O=c1ccn([C@H]2C[C@H](O)[C@@H](CO)S2)c(=O)[nH]1", "endpoint": "EC50", "method": "cytopathic effect", "cell line": "E6SM", "result": ">2000 µM"}
{"compound": "O=c1[nH][se]c2ccccc12", "endpoint": "MIC", "result": "600 µg/mL"}
{"compound": "Nc1ccn([C@@H]2C[C@H](CO)[C@@H](O)[C@H]2O)c(=O)n1", "endpoint": "EC50", "method": "cytopathic effect", "cell line": "CV-1", "result": "2 µg/mL"}
{"compound": "Nc1ncnc2c1ncn2C[C@H](O)CO", "endpoint": "EC50", "method": "cytopathic effect", "cell line": "HeLa", "result": "4 µg/mL"}
{"compound": "O=c1[nH]c(=O)n([C@H]2C[C@H](O)[C@@H](CO)O2)cc1/C=C/Br", "endpoint": "EC50", "method": "cytopathic effect", "cell line": "E6SM", "result": ">200 µM"}
{"compound": "OCCOC([C@H](O)CO)n1cnc2cc(Cl)c(Cl)cc21", "endpoint": "EC50", "method": "cytopathic effect", "cell line": "HeLa", "result": ">200 µg/mL"}
{"compound": "Nc1ncnc2c1ncn2CCOCP(=O)(O)O", "endpoint": "EC50", "method": "cytopathic effect", "result": ">185 µM"}
{"compound": "O=c1c2cccnc2[se]n1N(c1ccccc1)c1ccccc1", "endpoint": "MIC", "result": "500 µg/mL"}
{"compound": "CCc1cn([C@H]2C[C@H](O)[C@@H](CO)O2)c(=O)[nH]c1=O", "endpoint": "EC50", "method": "cytopathic effect", "cell line": "E6SM", "result": ">2000 µM"}
{"compound": "OC[C@H]1O[C@H](n2cnc3cc(Cl)c(Cl)cc32)[C@@H](O)[C@H]1O", "endpoint": "EC50", "method": "cytopathic effect", "cell line": "HeLa", "result": ">200 µg/mL"}
{"compound": "NC(=O)c1ccnc([C@@H]2O[C@H](CO)[C@@H](O)[C@H]2O)c1", "endpoint": "EC50", "method": "cytopathic effect", "cell line": "HeLa", "result": ">400 µg/mL"}
{"compound": "O=c1[nH]c(=O)n([C@H]2C[C@H](O)[C@@H](CO)O2)cc1/C=C/Br", "endpoint": "EC50", "method": "plaque count", "cell line": "BHK-21/C13", "result": ">500 µM"}
{"compound": "O=c1[nH]c(=O)n([C@H]2C[C@H](O)[C@@H](CO)O2)cc1C1CCCC1", "endpoint": "EC50", "method": "cytopathic effect", "cell line": "E6SM", "result": ">1200 µM"}
{"compound": "CC(C)[Si]1(C(C)C)OC[C@H]2O[C@@H](n3cnc4cc(Cl)c(Cl)cc43)[C@@H](O)[C@H]2O[Si](C(C)C)(C(C)C)O1", "endpoint": "EC50", "method": "cytopathic effect", "cell line": "HeLa", "result": ">400 µg/mL"}
{"compound": "Cn1cc(NC(=O)c2cc(NC(=O)CN=C(N)N)cn2C)c(C(=O)NCCC(=N)N)c1", "endpoint": "EC50", "method": "cytopathic effect", "cell line": "PRK", "result": "≥40 µg/mL"}
{"compound": "Nc1ncnc2c1c(Br)cn2[C@@H]1O[C@H](CO)[C@@H](O)[C@H]1O", "endpoint": "EC50", "method": "cytopathic effect", "cell line": "PRK/E6SM", "result": "0.07 µg/mL"}
{"compound": "C[C@H](COc1cc(N)nc(N)n1)OCP(=O)(O)O", "endpoint": "EC50", "method": "cytopathic effect", "result": ">180 µM"}
{"compound": "CCOC(=O)C(CCSC[C@H]1O[C@@H](n2ccc3c(N)ncnc32)[C@H](O)[C@@H]1O)NC(=O)COC", "endpoint": "EC50", "method": "cytopathic effect", "cell line": "HeLa", "result": "70 µg/mL"}
{"compound": "Nc1nccc2c1ncn2[C@@H]1C[C@H](CO)[C@@H](O)[C@H]1O", "endpoint": "EC50", "method": "cytopathic effect", "cell line": "ESM", "result": "0.2 µg/mL"}
{"compound": "O=c1[nH]c(=O)n([C@H]2C[C@H](O)[C@@H](CO)S2)cc1C1CCCC1", "endpoint": "EC50", "method": "cytopathic effect", "cell line": "E6SM", "result": ">1200 µM"}
{"compound": "Nc1nccc2c1ncn2[C@@H]1C=C[C@@H](O)[C@H]1O", "endpoint": "EC50", "method": "cytopathic effect", "cell line": "PRK", "result": "0.2 µg/mL"}
{"compound": "NC(=O)c1ncn([C@@H]2O[C@H](CO)[C@@H](O)[C@H]2O)n1", "endpoint": "EC50", "method": "cytopathic effect", "cell line": "HeLa", "result": "192 µM"}
{"compound": "Nc1nccc2c1ncn2[C@@H]1C[C@H](CO)[C@@H](O)[C@H]1O", "endpoint": "EC50", "method": "cytopathic effect", "cell line": "HeLa", "result": "4 µg/mL"}
{"compound": "NC(=O)c1csc([C@@H]2O[C@H](CO)[C@@H](O)[C@H]2O)n1", "endpoint": "EC50", "method": "cytopathic effect", "strain or isolate": "Indiana", "cell line": "HeLa", "result": "200 µg/mL"}

Repeating the first 4 entries:

| compound | endpoint | method | strain or isolate | cell line | result |
|---|---|---|---|---|---|
| OC[C@H]1O[C@@H](n2cnc3cc(Cl)c(Cl)cc32)[C@H](O)[C@H]1O | EC50 | cytopathic effect |  | HeLa | >10 µg/mL |
| C[C@H]1C[C@@H](n2cnc3c(N)ncnc32)[C@H](O)[C@@H]1O | EC50 | cytopathic effect |  | E6SM | 0.7 µg/mL |
| Cc1cn([C@H]2C[C@H](O)[C@@H](CO)S2)c(=O)[nH]c1=O | EC50 | cytopathic effect |  | E6SM | >2000 µM |
| Nc1nc(Cl)c2nnn(C[C@H]3CC[C@@H](CO)C3)c2n1 | EC50 | cytopathic effect |  | E6SM | >200 µg/mL |